Experimental data published in patent US20240059757A1 (VIR BIOTECHNOLOGY, published 2024).

Target: T1, SARS-CoV-2 P.1 RBD (SARS-CoV-2 P.1)
T1 construct: domain: RBD
Test: ELISA

B1: S2X259 variant antibody, VH SEQ ID NO 459 / VL SEQ ID NO 445 (antibody, V domains shown)
VH: QVQLVQSGAEVKKPGSSVKVSCKASGGIFNTYTISWVRQAPGQGLEWMGRIILMSGKANYAQKIQGRVTITADKSTSTAYMELTSLRSDDTAVYYCARGFNGNYYGWGDDDAFDIWGQGTLVTVSS
VL: QTVLTQPPSVSGAPGQRVTISCTGSNSNIGAGYDVHWYQQLPGTAPKLLIVGNSNRPSGVPDRFSGSKSGTSASLAITGLQAEDEADYYCQSYDSSLSGPNWVFGGGTKLTVL
IC50: ≥ 0.05 µg/mL and ≤ 0.1 µg/mL

Several values for one entry are separate records, joined by “and”; a condition that tells them apart may be missing. Identical values can stand only once.
